Anti-infective test results gathered from many reports (values: NIAID ChemDB through PubChem).

All rows: toxicity to cultured cells; cell line: MT-4; measure: CC50

CCn: concentration that lowers growth or viability of the cells by n%. Rows are shuffled and stem from different studies. An empty or dashed field is not shown.

{"SMILES": "Cc1cc(C#N)cc(C)c1Oc1ncc(N)c(Nc2ccc(C#N)cc2)n1", "method": "MTT", "result": "35.1 µM"}
{"SMILES": "CCN1C(C)Cn2c(=O)[nH]c3cc(Cl)cc(c32)S1(=O)=O", "method": "MTT", "result": "130 µM"}
{"SMILES": "CC(=O)Nc1cnc(Oc2c(Br)cc(Br)cc2Br)nc1Nc1ccc(C#N)cc1", "method": "MTT", "result": "≥118 µM"}
{"SMILES": "Nc1c(-c2nccc(=O)[nH]2)ncn1[C@@H]1O[C@H](CO)[C@@H](O)[C@H]1O", "result": ">1500 µM"}
{"SMILES": "O=c1c2ccccc2nc2sc(Nc3ccccc3)nn12", "method": "MTT", "result": ">42.9 µg/mL"}
{"SMILES": "Cc1cc(C)c(-n2c(SCC(=O)Nc3ccc([N+](=O)[O-])cc3Cl)nc3cnccc32)c(C)c1", "method": "MTT", "result": "29 µM"}
{"SMILES": "CC(C)CN(C[C@@H](O)[C@H](Cc1ccccc1)NC(=O)O[C@H]1CCOC1)S(=O)(=O)c1ccc2ncn(CCc3ccccc3)c2c1", "result": "63.1 µM"}
{"SMILES": "O=c1ccn([C@H]2C=C[C@@H](CO)O2)c(=O)n1C/C=C/CN1CCN(CCNC(=S)Nc2ccc(Br)cn2)CC1", "method": "MTT", "result": ">100 µM"}
{"SMILES": "CC1Cn2c(=O)[nH]c3cc(Cl)cc(c32)S(=O)(=O)N1", "method": "MTT", "result": ">200 µM"}
{"SMILES": "COc1ccc(C(=O)/C=C/c2ccc(OC)cc2OC)cc1", "method": "MTT", "result": "143 µM"}
{"SMILES": "Cc1c(N)nc(Nc2ccc(C#N)cc2)nc1Cc1c(F)cccc1F", "method": "MTT", "result": "45.9 µM"}
{"SMILES": "Cc1cn([C@H]2C=C[C@@H](CO)O2)c(=O)[nH]c1=O", "method": "MTT", "result": ">100 µM"}
{"SMILES": "O=C(Nc1cc(C(=O)Nc2ccc(S(=O)(=O)O)cc2)cc(C(=O)Nc2ccc(S(=O)(=O)O)cc2)c1)Nc1cc(C(=O)Nc2ccc(S(=O)(=O)O)cc2)cc(C(=O)Nc2ccc(S(=O)(=O)O)cc2)c1", "result": ">500 µg/mL"}
{"SMILES": "Cc1cc(C)c(-n2c(SCC(=O)Nc3ccc(Cl)cc3Cl)nc3cccnc32)c(C)c1", "method": "MTT", "result": "3.9 µM"}
{"SMILES": "O=S(=O)(O)OCC1OC2OC3C(COS(=O)(=O)O)OC(OC4C(COS(=O)(=O)O)OC(OC5C(COS(=O)(=O)O)OC(OC6C(COS(=O)(=O)O)OC(OC7C(COS(=O)(=O)O)OC(OC8C(COS(=O)(=O)O)OC(OC9C(COS(=O)(=O)O)OC(OC1C(OS(=O)(=O)O)C2OS(=O)(=O)O)C(OS(=O)(=O)O)C9OS(=O)(=O)O)C(OS(=O)(=O)O)C8OS(=O)(=O)O)C(OS(=O)(=O)O)C7OS(=O)(=O)O)C(OS(=O)(=O)O)C6OS(=O)(=O)O)C(OS(=O)(=O)O)C5OS(=O)(=O)O)C(OS(=O)(=O)O)C4OS(=O)(=O)O)C(OS(=O)(=O)O)C3OS(=O)(=O)O", "result": ">2500 µg/mL"}
{"SMILES": "Cc1ccnc2c1NC(=O)c1cccnc1N2C1CC1", "method": "MTT", "result": ">15 µM"}
{"SMILES": "CCOC(=O)CNS(=O)(=O)c1cc(Cl)ccc1N", "method": "MTT", "result": ">200 µM"}
{"SMILES": "Cc1cccc(C)c1OCC(=O)N[C@@H](Cc1ccccc1)[C@H](O)CN(CC(C)C)S(=O)(=O)c1ccc2nc(N)n(C)c2c1", "result": ">100 µM"}
{"SMILES": "CC(=O)N1CCn2c(nc(C(=O)NCc3ccc(F)cc3)c(O)c2=O)C1CN(C)C", "method": "microscopy", "result": ">1 µM"}
{"SMILES": "N#Cc1ccc(Nc2nccc(NC3CCCC3)n2)cc1", "result": "9.13 µM"}
{"SMILES": "Cc1cn([C@H]2C=C[C@@H](CO)O2)c(=O)n(CCCCCCN2CCN(CCNC(=S)Nc3ccc(Br)cn3)CC2)c1=O", "method": "MTT", "result": ">100 µM"}
{"SMILES": "CC1C(=S)Nc2ccc(Cl)cc2S(=O)(=O)N1Cc1c(F)cccc1F", "method": "MTT", "result": "≥200 µM"}
{"SMILES": "Cc1cnc(Nc2ccc(C#N)cc2)nc1SC1CCCCC1", "result": "33.38 µM"}
{"SMILES": "N#Cc1ccc(Nc2nc(Oc3c(Cl)cc(Cl)cc3Cl)ncc2N)cc1", "method": "MTT", "result": "26 µM"}
{"SMILES": "CCCCSc1nc(C2(c3c(F)cccc3F)CC2)c(C)c(=O)[nH]1", "method": "MTT", "result": "8 µM"}
{"SMILES": "O=c1ccn([C@H]2C=C[C@@H](CO)O2)c(=O)n1CCCCN1CCN(CCNC(=S)Nc2ccc(Br)cn2)CC1", "method": "MTT", "result": ">100 µM"}
{"SMILES": "COc1ccc(/C=C/C(=O)c2ccc(OC)cc2)cc1", "method": "MTT", "result": "236 µM"}
{"SMILES": "CC(C)=CCN1C(C)Cn2c(=S)[nH]c3cc(Cl)cc(c32)S1(=O)=O", "method": "MTT", "result": "23 µM"}
{"SMILES": "O=C(Nc1ccccc1-c1cccc(C(=O)Nc2ccc(S(=O)(=O)O)c3cc(S(=O)(=O)O)cc(S(=O)(=O)O)c23)c1)Nc1ccccc1-c1cccc(C(=O)Nc2ccc(S(=O)(=O)O)c3cc(S(=O)(=O)O)cc(S(=O)(=O)O)c23)c1", "result": ">500 µg/mL"}
{"SMILES": "COC(=O)c1ccc(NC(=O)CSc2nc3cnccc3n2-c2c(C)cc(C)cc2C)c(Br)c1", "method": "MTT", "result": "27 µM"}
{"SMILES": "CC=CCN1C(C)C(=S)Nc2ccc(Cl)cc2S1(=O)=O", "method": "MTT", "result": "57 µM"}
{"SMILES": "O=C(O)/C=C\\c1ccc(O)c(O)c1/C(=C/c1ccc(O)c(O)c1)C(=O)O", "method": "MTT", "result": "6.4 µM"}
{"SMILES": "O=c1cc(CCl)nc2c3ncn([C@H]4C[C@H](O)[C@@H](COP(=O)(O)O)O4)c3ncn12", "result": ">1000 µM"}
{"SMILES": "CCc1cn([C@H]2C[C@H](F)[C@@H](CO)O2)c(=O)[nH]c1=O", "result": ">625 µM"}
{"SMILES": "CCOC(=O)c1ccc(NC(=O)CSc2nc3cnccc3n2-c2c(C)cc(C)cc2C)c(Br)c1", "method": "MTT", "result": "22 µM"}
{"SMILES": "CC(=O)N(CC(C)C)C1CN(C)CCn2c1nc(C(=O)NCc1ccc(F)cc1)c(O)c2=O", "method": "microscopy", "result": ">1 µM"}
{"SMILES": "Cc1cccc(Nc2nn3c(=O)c4ccccc4nc3s2)c1", "method": "MTT", "result": ">32 µg/mL"}
{"SMILES": "CC(c1ccnc(Nc2ccc(C#N)cc2)n1)c1c(F)cccc1F", "method": "MTT", "result": "37.5 µM"}
{"SMILES": "O=c1ccn([C@H]2C=C[C@@H](CO)O2)c(=O)n1CCOCCN1CCN(CCNC(=S)Nc2ccc(Br)cn2)CC1", "method": "MTT", "result": ">100 µM"}
{"SMILES": "C=CCN1C(C)C(=S)Nc2ccc(Cl)cc2S1(=O)=O", "method": "MTT", "result": "16 µM"}
{"SMILES": "Cc1c(Cl)nc(Nc2ccc(C#N)cc2)nc1Cc1c(F)cccc1F", "method": "MTT", "result": ">2.697 µM"}
{"SMILES": "CC(C)CN(C[C@@H](O)[C@H](Cc1ccccc1)NC(=O)O[C@H]1CO[C@H]2OCC[C@H]21)S(=O)(=O)c1ccc2ncn(CCc3ccccc3)c2c1", "result": "79.4 µM"}
{"SMILES": "N#Cc1ccc(Nc2nccc(OC3CCCC3)n2)cc1", "result": ">340 µM"}
{"SMILES": "[N-]=[N+]=N[C@H]1C[C@@H](CO)O[C@H]1n1cnc2c(N)ncnc21", "result": "625 µM"}
{"SMILES": "COc1ccc(-c2c3c(n([C@@H]4O[C@H](COC(C)=O)[C@@H](OC(C)=O)[C@H](OC(C)=O)[C@@H]4OC(C)=O)c(=S)c2C#N)-c2ccccc2C3)cc1", "result": "8.91 µM"}
{"SMILES": "Cc1c(Cc2c(F)cccc2F)nc(Nc2ccc(C#N)cc2)[nH]c1=O", "method": "MTT", "result": ">2.838 µM"}
{"SMILES": "N#Cc1ccc(Nc2nccc(NC3CCCCC3)n2)cc1", "result": "7.33 µM"}
{"SMILES": "CC(C)CN(C[C@@H](O)[C@H](Cc1ccccc1)NC(=O)O[C@H]1CO[C@H]2OCC[C@H]21)S(=O)(=O)c1ccc2ncn(CCO)c2c1", "result": ">100 µM"}
{"SMILES": "CC(=O)N1Cn2c(nc(C(=O)NCc3ccc(F)cc3)c(O)c2=O)C1(C)C", "method": "microscopy", "result": ">1 µM"}
{"SMILES": "CCc1ccc(C(=O)Nc2ccc(S(=O)(=O)O)c3cc(S(=O)(=O)O)cc(S(=O)(=O)O)c23)cc1NC(=O)Nc1cc(C(=O)Nc2ccc(S(=O)(=O)O)c3cc(S(=O)(=O)O)cc(S(=O)(=O)O)c23)ccc1CC", "result": ">500 µg/mL"}
{"SMILES": "CCC(C)Sc1nc(C2(c3c(F)cccc3F)CC2)c(C)c(=O)[nH]1", "method": "MTT", "result": "20 µM"}
{"SMILES": "CC1C(=S)Nc2ccc(Cl)cc2S(=O)(=O)N1CC1CC1", "method": "MTT", "result": ">200 µM"}
{"SMILES": "COc1ccc(C(=O)/C=C/c2ccccc2)c(O)c1", "method": "MTT", "result": "205 µM"}
{"SMILES": "Cc1cc(C)c(-n2c(SCC(=O)Nc3ccccc3)nc3cccnc32)c(C)c1", "method": "MTT", "result": "26 µM"}
{"SMILES": "Cc1cn([C@H]2C[C@H](N=[N+]=[N-])[C@@H](CO)O2)c(=O)nc1N", "result": ">1000 µM"}
{"SMILES": "CC(=O)N1CCc2nc(C(=O)NCc3ccc(F)cc3)c(O)c(=O)n2CC1", "method": "microscopy", "result": ">1 µM"}
{"SMILES": "Cc1cc(C)c(-n2c(SCC(=O)Nc3ccccc3Br)nc3cnccc32)c(C)c1", "method": "MTT", "result": "22 µM"}
{"SMILES": "CC(C)CN(C[C@@H](O)[C@H](Cc1ccccc1)NC(=O)OC1COC2OCCC12)S(=O)(=O)c1ccc2nc(NC(=O)NCCN(C)C)[nH]c2c1", "result": ">100 µM"}
{"SMILES": "O=c1ccn([C@H]2C=C[C@@H](CO)O2)c(=O)n1CC#CCN1CCN(CCNC(=S)Nc2ccc(Br)cn2)CC1", "method": "MTT", "result": ">100 µM"}
{"SMILES": "O=C(Nc1ccc(-c2ccc(C(=O)Nc3ccc(S(=O)(=O)O)c4cc(S(=O)(=O)O)cc(S(=O)(=O)O)c34)cc2)cc1)Nc1ccc(-c2ccc(C(=O)Nc3ccc(S(=O)(=O)O)c4cc(S(=O)(=O)O)cc(S(=O)(=O)O)c34)cc2)cc1", "result": ">50 µg/mL"}
{"SMILES": "Cc1cccc(CN2C(C)C(=O)Nc3ccc(Cl)cc3S2(=O)=O)c1", "method": "MTT", "result": ">200 µM"}
{"SMILES": "CC(C)CN(C[C@@H](O)[C@H](Cc1ccccc1)NC(=O)O[C@H]1CO[C@H]2OCC[C@H]21)S(=O)(=O)c1ccc2ncn(Cc3ccccc3)c2c1", "result": "63.1 µM"}
{"SMILES": "CC(c1cc(N)nc(Nc2ccc(C#N)cc2)n1)c1c(F)cccc1F", "method": "MTT", "result": "46.1 µM"}
{"SMILES": "Nc1ncnc2c1ncn2[C@H]1C=C[C@@H](OCP(=O)(O)O)O1", "result": ">500 µM"}
{"SMILES": "CC(CO)n1cnc2c(N)ncnc21", "result": ">100 µM"}
{"SMILES": "Cc1cc(C)cc(S(=O)(=O)c2c(C(=O)/C=C/C(N)=O)[nH]c3ccc(Cl)cc23)c1", "method": "MTT", "result": ">200 µM"}
{"SMILES": "CCc1cn([C@H]2C[C@H](N=[N+]=[N-])[C@@H](CO)O2)c(=O)[nH]c1=O", "result": "418 µM"}
{"SMILES": "Cc1c(N)cccc1C(=O)N[C@@H](Cc1ccccc1)[C@H](O)CN(CC(C)C)S(=O)(=O)c1ccc2nc[nH]c2c1", "result": ">100 µM"}
{"SMILES": "Cc1cc(C)c(-n2c(SCC(=O)Nc3ccc([N+](=O)[O-])cc3Cl)nc3cccnc32)c(C)c1", "method": "MTT", "result": "25 µM"}
{"SMILES": "COc1ccc(C(=O)/C=C/c2ccc(Br)cc2)c(O)c1", "method": "MTT", "result": "32.54 µM"}
{"SMILES": "Cc1cn([C@@H]2OC3COC4(O)CS(=O)(=O)OC34C2O)c(=O)[nH]c1=O", "result": ">100 µM"}
{"SMILES": "O=C(NCc1ccc(F)cc1)c1nc2n(c(=O)c1O)CCN(C(=O)C(F)(F)F)C2", "method": "microscopy", "result": ">1 µM"}
{"SMILES": "c1cc(CNCc2ccc(CN3CCCNCCNCCCNCC3)cc2)ccn1", "method": "MTT", "result": ">250 µg/mL"}

The last 4 rows once more:

| SMILES | method | result |
|---|---|---|
| COc1ccc(C(=O)/C=C/c2ccc(Br)cc2)c(O)c1 | MTT | 32.54 µM |
| Cc1cn([C@@H]2OC3COC4(O)CS(=O)(=O)OC34C2O)c(=O)[nH]c1=O |  | >100 µM |
| O=C(NCc1ccc(F)cc1)c1nc2n(c(=O)c1O)CCN(C(=O)C(F)(F)F)C2 | microscopy | >1 µM |
| c1cc(CNCc2ccc(CN3CCCNCCNCCCNCC3)cc2)ccn1 | MTT | >250 µg/mL |